{"source": "paper PMC4158172", "about": "“Effects of enzyme inducers efavirenz and tipranavir/ritonavir on the pharmacokinetics of the HIV integrase inhibitor dolutegravir” (European Journal of Clinical Pharmacology, 2014)", "origin": "cited, not measured here", "test_system": "P-gp", "settings": "not told; cited from earlier work"}
{"substance": "tipranavir/ritonavir [TPV/r]", "values": [{"measurement": "effect on intestinal P-gp", "value": "moderately inhibits"}]}
